Results of unrelated studies side by side (data: NIAID ChemDB).

Shared fields: tests in culture; organism: HIV-1

Conditions beyond the fields shown may differ between rows.

SMILES,changes,read by,strain or isolate,read-out,setting,cell line,result
COc1cc2c(c(O)c1OC)-c1c(cc3c(c1O)OCO3)C[C@H](C)[C@H](C)C2,,syncytia,IIIB,EC50,,C8166,5.57 µg/mL
O=C(OC1OC2COC(=O)c3cc(O)c(O)c(O)c3-c3c(cc(O)c(O)c3O)C(=O)OC2C(OC(=O)c2cc(O)c(O)c(O)c2)C1OC(=O)c1cc(O)c(O)c(O)c1)c1cc(O)c(O)c(Oc2c(C(=O)OC3OC4COC(=O)c5cc(O)c(O)c(O)c5-c5c(cc(O)c(O)c5O)C(=O)OC4C4OC(=O)c5cc(O)c(O)c(O)c5-c5c(cc(O)c(O)c5O)C(=O)OC34)cc(O)c(O)c2O)c1,,cytopathic effect / MTT,IIIB,EC50,,MT-4,7.7 µg/mL
CC1(C)C(c2ccc(C(=O)O)cc2)=CC[C@]2(C)CN(C(=O)c3ccccc3-c3nc4c(Cl)cc(Cl)cc4[nH]3)CC=C12,Renilla luciferase reporter Gag P373S,luciferase / luminescence,NL4-3,EC50,,MT-2,>3 µM
c1ccc2c(NC3CCNCC3)nc(NCc3ccc(CNCCCN4CCCCC4)cc3)nc2c1,,luciferase,IIIB,EC50,,TZM-bl,0.0715 µM
O=C(OC[C@H]1O[C@@H](OC(=O)c2cc(O)c(O)c(O)c2)[C@H](OC(=O)c2cc(O)c(O)c(O)c2)[C@@H](OC(=O)c2cc(O)c(O)c(O)c2)[C@@H]1O)c1cc(O)c(O)c(O)c1,,cytopathic effect / MTT,IIIB,EC50,,MT-4,>50 µg/mL
COc1cccc2oc(-c3ccccc3C(=O)N3CC=C4C(C)(C)C(c5ccc(C(=O)O)cc5)=CC[C@]4(C)C3)nc12,Renilla luciferase reporter Gag P373S,luciferase / luminescence,NL4-3,EC50,,MT-2,0.5–3 µM
NC(=O)CCNC[C@H](Cc1ccc(O)cc1)NC[C@H](Cc1ccc(O)cc1)NC[C@@H](N)Cc1ccc(O)cc1,,luciferase,,EC50,,HeLa,30 µM
CC(CO)NC(=O)c1ccc2c(c1)nc(NCc1cccc3ccccc13)n2C1CCCCCC1,,syncytia,,EC50,2% FBS,H9,2 µM
O=CC1OC(=O)c2cc(O)c(O)c(O)c2Oc2cc3c(c(O)c2O)-c2c(cc(Oc4c(C(=O)O)cc(O)c(O)c4O)c(O)c2O)C(=O)OCC(O)C(OC3=O)C(OC(=O)c2cc(O)c(O)c(O)c2)C(C=O)OC(=O)c2cc(O)c(O)c(O)c2Oc2cc3c(c(O)c2O)-c2c(cc(O)c(O)c2O)C(=O)OC(C(O)COC3=O)C1OC(=O)c1cc(O)c(O)c(O)c1,,cytopathic effect / MTT,IIIB,EC50,,MT-4,>100 µg/mL
CN(C)CCNc1cc(-c2ccc3ccccc3c2)nc2ccccc12,,p24,LAV,EC50,,PBMC,2.5 µM
O=C[C@H](OC(=O)c1cc(O)c(O)c(O)c1)[C@@H](OC(=O)c1cc(O)c(O)c(O)c1)[C@@H]1OC(=O)c2cc(O)c(O)c(O)c2-c2c(cc(Oc3c(C(=O)O[C@@H]4O[C@@H]5COC(=O)c6cc(O)c(O)c(O)c6-c6c(cc(O)c(O)c6O)C(=O)O[C@H]5[C@H](OC(=O)c5cc(O)c(O)c(O)c5)[C@H]4OC(=O)c4cc(O)c(O)c(O)c4)cc(O)c(O)c3O)c(O)c2O)C(=O)OC[C@H]1O,,cytopathic effect / MTT,IIIB,EC50,,MT-4,>50 µg/mL
Cc1cn([C@H]2C=C[C@@H](COP(=O)(Nc3cc(C(=O)Nc4cc(C(=O)Nc5cc(C(=O)NCCC#N)n(C)c5)n(C)c4)n(C)c3)OC3CCCCC3)O2)c(=O)[nH]c1=O,,syncytia,,EC50,,CEM,1.39 µM
Cc1cc(S(=O)(=O)Nc2nnc3cnc4ccccc4n23)c(S)cc1Cl,,cytopathic effect / XTT,RF,EC50,,CEM,74 µM
c1ccc2c(NC3CCNCC3)nc(NCc3ccc(CNCCCNC4CCC4)cc3)nc2c1,,luciferase,IIIB,EC50,,TZM-bl,0.1111 µM
CC1=CC[C@@H]([C@@H](C)[C@H]2CC[C@@]3(C)C4=C(C=C5C=CC(=O)OC(C)(C)[C@@H]5C=C4)CC[C@]23C)OC1=O,,p24,IIIB,EC50,,H9,>7.1 µg/mL
O=C1CCC(=O)N1CCCCCCc1ccc2c3ccccc3c3ccccc3c2c1,,p24,NL4-3,EC50,,H9,>100 µM
Cc1cn([C@H]2C=C[C@@H](COP(=O)(Nc3cc(C(=O)Nc4cc(C(=O)Nc5cc(C(=O)Nc6cc(C(=O)NCCC(=N)N)n(C)c6)n(C)c5)n(C)c4)n(C)c3)OC(C)C)O2)c(=O)[nH]c1=O,,syncytia,,EC50,,CEM,5.33 µM
Cc1cn([C@H]2C[C@H](N=[N+]=[N-])[C@@H](CO)O2)c(=O)[nH]c1=O,,p24 / ELISA / antigen,TKV-4046,EC50,,MT-4,0.037 µM
Cc1cn([C@H]2C[C@H](N=[N+]=[N-])[C@@H](COP(=O)(Nc3cc(C(=O)Nc4cc(C(=O)Nc5cc(C(=O)NCCC(=N)N)n(C)c5)n(C)c4)n(C)c3)OC(C)C)O2)c(=O)[nH]c1=O,,syncytia,,EC50,,CEM,0.078 µM
CC(C)CN(CC(O)CN(CC(C)C)S(=O)(=O)c1ccc(O)cc1)S(=O)(=O)c1ccccc1,,p24,IIIB,EC90,,CEM,1 µM
O=C1OC2OC3COC(=O)c4cc(O)c(O)c(O)c4-c4c(cc(O)c(O)c4O)C(=O)OC3C(OC(=O)c3cc(O)c(O)c(O)c3)C2OC(=O)c2cc(O)c(O)c(O)c2Oc2cc(cc(O)c2O)C(=O)OC2OC3COC(=O)c4cc(O)c(O)c(O)c4-c4c(cc(O)c(O)c4O)C(=O)OC3C(OC(=O)c3cc(O)c(O)c(O)c3)C2OC(=O)c2cc(O)c(O)c(O)c2Oc2cc1cc(O)c2O,,cytopathic effect / MTT,IIIB,EC50,,MT-4,25 µg/mL
Cc1cc(C)cc(CNc2nc3cc(C(=O)NC(C)(CO)CO)ccc3n2C2CCCCCC2)c1,,syncytia,,EC50,2% FBS,H9,0.75 µM
COc1ccc(S(=O)(=O)N(Cc2ccccc2)CC(F)(F)C(=O)[C@@H](Cc2ccccc2)NC(=O)OC2COCOC2)cc1,,p24,IIIB,EC90,,CEM,1 µM
Cc1cn(C2C[C@H](N=[N+]=[N-])[C@@H](COP(=O)(Nc3cc(C(=O)Nc4cc(C(=O)Nc5cc(C(=O)NCCC#N)n(C)c5)n(C)c4)n(C)c3)OC(C)C)O2)c(=O)[nH]c1=O,,p24 / antigen,,EC50,,MT-4,0.013 µM
COc1cc([C@H]2O[C@@H](c3ccc(O)cc3)[C@H](C)[C@@H]2C)ccc1O,,,IIIB,EC50,,MT-4,3.38 µg/mL
COc1ccc(S(=O)(=O)N(CC(C)C)C[C@@H](O)CCN(CC2CCCC2)S(=O)(=O)c2ccc(O)cc2)cc1,,p24,IIIB,EC90,,CEM,1 µM
Cc1cn([C@H]2C[C@H](N=[N+]=[N-])[C@@H](COP(=O)(Nc3cc(C(=O)Nc4cc(C(=O)NCCC(=N)N)n(C)c4)n(C)c3)OC3CCCCC3)O2)c(=O)[nH]c1=O,,syncytia,,EC50,,CEM,0.201 µM
O=C(O[C@@H]1[C@@H](c2c(O)cc(O)c3c2O[C@H](c2ccc(O)c(O)c2)[C@H](OC(=O)c2cc(O)c(O)c(O)c2)C3)c2c(O)cc(O)cc2O[C@@H]1c1ccc(O)c(O)c1)c1cc(O)c(O)c(O)c1,,cytopathic effect / MTT,IIIB,EC50,,MT-4,>50 µg/mL
Nc1ncnc2c1ncn2[C@@H]1C[C@H](CO)[C@H]1CO,,,,EC50,,,0.3 µg/mL
COc1cccc2[nH]cc(C(=O)C(=O)N3CCN(C(=O)c4ccccc4)C[C@H]3C)c12,,virus yield,LAV,EC50,,MT-2/CXCR4,0.00198 µM
O=C(N[C@@H](Cc1ccccc1)C(=O)C(F)(F)N(Cc1ccccc1)S(=O)(=O)c1ccccc1)OC1COCOC1,,p24,IIIB,EC90,,CEM,1 µM
Cc1cn([C@H]2C=C[C@@H](COP(=O)(Nc3cc(C(=O)Nc4cc(C(=O)Nc5cc(C(=O)NCCC(=N)N)n(C)c5)n(C)c4)n(C)c3)OC(C)C)O2)c(=O)[nH]c1=O,,syncytia,,EC50,,CEM/TK-,1.07 µM
COc1ccc(S(=O)(=O)N(CC2CCCC2)C[C@@H](O)CN(CCc2ccccc2)C(=O)Cc2ccccc2)cc1,,p24,IIIB,EC90,,CEM,1 µM
O=C(OC1OC2COC(=O)c3cc(Oc4c(C(=O)OC5OC6COC(=O)c7cc(O)c(O)c(O)c7-c7c(cc(O)c(O)c7O)C(=O)OC6C(OC(=O)c6cc(O)c(O)c(O)c6)C5OC(=O)c5cc(O)c(O)c(O)c5)cc(O)c(O)c4O)c(O)c(O)c3-c3c(cc(O)c(O)c3O)C(=O)OC2C(OC(=O)c2cc(O)c(O)c(O)c2)C1OC(=O)c1cc(O)c(O)c(O)c1)c1cc(O)c(O)c(O)c1,,cytopathic effect / MTT,IIIB,EC50,,MT-4,11.8 µg/mL
Cc1cn(C2CC(N=[N+]=[N-])C(OP(=O)(O)C(=O)NCCc3ccccc3)O2)c(=O)[nH]c1=O,,p24 / ELISA / antigen,TKV-4046,EC50,,MT-4,0.2 µM
Cc1cn([C@H]2C[C@H](N=[N+]=[N-])[C@@H](COP(=O)(Nc3cc(C(=O)Nc4cc(C(=O)Nc5cc(C(=O)NCCC(=N)N)n(C)c5)n(C)c4)n(C)c3)OC3CCCCC3)O2)c(=O)[nH]c1=O,,syncytia,,EC50,,CEM/TK-,0.97 µM
CN1CCN(c2c3c(nc4ccccc24)-c2ccsc2CC3)CC1,,p24,LAV,EC50,,PBMC,2 µM
CCN(CC)Cc1cnc2c(C(=O)Nc3ccc4[nH]ncc4c3)cnn2c1,,luciferase,NL4-3,EC50,,TZM-bl,17.2 µM
Cc1cccc(CNc2nc3cc(C(=O)NC(C)(CO)CO)ccc3n2C2CCCCCC2)c1F,,syncytia,,EC50,2% FBS,H9,1.5 µM
O=C(OC1C(OC(=O)c2cc(O)c(O)c(O)c2Oc2cc3c(c(O)c2O)-c2c(cc(O)c(O)c2O)C(=O)OCC2OC(OC(=O)c4cc(O)c(O)c(O)c4O)C(OC(=O)c4cc(O)c(O)c(O)c4)C(OC(=O)c4cc(O)c(O)c(O)c4)C2OC3=O)OC2COC(=O)c3ccc(O)c(O)c3-c3c(cc(O)c(O)c3O)C(=O)OC2C1OC(=O)c1cc(O)c(O)c(O)c1)c1cc(O)c(O)c(O)c1,,cytopathic effect / MTT,IIIB,EC50,,MT-4,>100 µg/mL
Cc1cn([C@H]2C=C[C@@H](COP(=O)(Nc3cc(C(=O)Nc4cc(C(=O)Nc5cc(C(=O)NCCC#N)n(C)c5)n(C)c4)n(C)c3)OC(C)C)O2)c(=O)[nH]c1=O,,syncytia,,EC50,,CEM/TK-,0.88 µM
c1ccc2c(NC3CCNCC3)nc(NCc3ccc(CNCCCNC4CCCCCC4)cc3)nc2c1,,luciferase,IIIB,EC50,,TZM-bl,0.0587 µM
Cc1cccc(CNc2nc3cc(C(=O)NC(C)CO)ccc3n2C2CCCCCC2)c1F,,syncytia,,EC50,20% FBS,H9,0.1 µM
CC(C)(C)c1cc(CS(=O)(=O)N(CC2CCCC2)C[C@@H](O)CN(CCc2ccccc2)C(=O)c2ccccc2)no1,,p24,IIIB,EC90,,CEM,1 µM
Cc1cn([C@H]2C[C@H](N=[N+]=[N-])[C@@H](CO)O2)c(=O)n(Cc2ccoc2)c1=O,,RT activity,LAI,EC50,,CEM-C113 + CEM/C113,143 µM
CN(C)CCNc1cc(-c2cccs2)nc2ccccc12,,p24,LAV,EC50,,PBMC,0.6 µM
Cc1cc(S(=O)(=O)Nc2nnc3c4ccccc4cnn23)c(S)cc1Cl,,p24,ddI-resistant,EC50,,CEM,8.2 µM
CC(C)=CCC[C@]1(C)C=Cc2c(ccc3c2C(=O)C(=O)C(C2=C(Cl)C(=O)c4ccccc4C2=O)=C3O)O1,,cytopathic effect / MTT,IIIB,EC50,,CEM,0.43 µM
CCCCCCNC(=O)P(=O)(O)OC1OC(n2cc(C)c(=O)[nH]c2=O)CC1N=[N+]=[N-],,p24 / ELISA / antigen,TKV-4046,EC50,,MT-4,0.11 µM
c1ccc2c(NC3CCNCC3)nc(NCc3ccc(CNCCCNC4CC4)cc3)nc2c1,,luciferase,IIIB,EC50,,TZM-bl,0.1612 µM
CC1(C)C(c2ccc(C(=O)O)cc2)=CC[C@]2(C)CN(C(=O)C3(c4ccccc4N)CCCC3)CC=C12,Renilla luciferase reporter Gag P373S,luciferase / luminescence,NL4-3,EC50,,MT-2,>3 µM
CC(CO)NC(=O)c1ccc2c(c1)nc(NCc1ccccc1)n2C1CCCCCC1,,syncytia,,EC50,2% FBS,H9,1.5 µM
C[C@@H]1C[C@H]2C3CCC4=CC(=O)C=C[C@]4(C)[C@@]3(F)[C@@H](O)C[C@]2(C)[C@@]1(O)C(=O)CO,,XTT / p24,IIIB,EC50,,MT-4,100 µM
CN1CCN(c2nc(-c3ccccc3)nc3ccccc23)CC1,,p24,LAV,EC50,,PBMC,28.5 µM

The first 3 rows once more:

| SMILES | changes | read by | strain or isolate | read-out | setting | cell line | result |
|---|---|---|---|---|---|---|---|
| COc1cc2c(c(O)c1OC)-c1c(cc3c(c1O)OCO3)C[C@H](C)[C@H](C)C2 |  | syncytia | IIIB | EC50 |  | C8166 | 5.57 µg/mL |
| O=C(OC1OC2COC(=O)c3cc(O)c(O)c(O)c3-c3c(cc(O)c(O)c3O)C(=O)OC2C(OC(=O)c2cc(O)c(O)c(O)c2)C1OC(=O)c1cc(O)c(O)c(O)c1)c1cc(O)c(O)c(Oc2c(C(=O)OC3OC4COC(=O)c5cc(O)c(O)c(O)c5-c5c(cc(O)c(O)c5O)C(=O)OC4C4OC(=O)c5cc(O)c(O)c(O)c5-c5c(cc(O)c(O)c5O)C(=O)OC34)cc(O)c(O)c2O)c1 |  | cytopathic effect / MTT | IIIB | EC50 |  | MT-4 | 7.7 µg/mL |
| CC1(C)C(c2ccc(C(=O)O)cc2)=CC[C@]2(C)CN(C(=O)c3ccccc3-c3nc4c(Cl)cc(Cl)cc4[nH]3)CC=C12 | Renilla luciferase reporter Gag P373S | luciferase / luminescence | NL4-3 | EC50 |  | MT-2 | >3 µM |

An empty or dashed field is not shown. Two numbers with a dash give a range or band. ECn is the concentration giving n% inhibition of infection, replication or growth.